Data published in patent publication US9788541B2, “Antibacterial surfactant/microgel formulations, methods of making and methods of using the same” (The University of Toledo, priority 2012, dated 2017).

Assay: Isothermal titration calorimetry of surfactant binding to microgels

## CCCCCCCCCCCCOS(=O)(=O)[O-].[Na+] [SDS, sodium dodecyl sulfate]
ITC, microgel dispersion, 10 mM NaCl
  surfactant concentration at saturation of cationic binding sites: about 2 mmol/kg
SDS concentration exceeding about 2 mmol/kg (after saturation of cationic binding sites)
  exothermic binding heat: 0.17 to 0.19 kcal/mol
Titrated into microgel dispersion, 10 mM NaCl, below saturation
  exothermic binding heat: approximately 5 kJ/mol of added SDS
